Pooled drug test results. Numbers come from NIAID ChemDB, via PubChem.

Shared fields: whole-cell or culture tests; organism: Candida glabrata; read-out: MIC

Conditions beyond the fields shown may differ between rows. Blank or dashed fields: not listed here.

smiles,strain,method,setting,value
CCC(C)CC(C)CCCCCCCCC(=O)N[C@H]1C[C@@H](O)[C@H](NCCN)NC(=O)[C@@H]2[C@@H](O)CCN2C(=O)[C@H]([C@H](O)CCN)NC(=O)[C@H]([C@H](O)[C@@H](O)c2ccc(O)cc2)NC(=O)[C@@H]2C[C@@H](O)CN2C(=O)[C@H]([C@@H](C)O)NC1=O,ATCC 66032,broth dilution,-,0.5 µg/mL
O=c1c(OC2CCCC2)c(N2CCN(S(=O)(=O)NCc3ccccc3)CC2)cnn1-c1cccc(Cl)c1,C624,broth dilution,-,0.1 µg/mL
O=C(/C=C/c1cccc(Cl)c1Cl)c1c[nH]c2ccccc12,ATCC 36583,broth dilution,-,200 µg/mL
CC[C@@H]([C@H](C)O)n1ncn(-c2ccc(N3CCN(c4ccc(OC[C@@H]5CO[C@@](Cn6cncn6)(c6ccc(F)cc6F)C5)cc4)CC3)cc2)c1=O,40 isolates,broth dilution,pH 5,2 µg/mL
C[C@@H]1CC(=O)N(Cc2ccccc2)C1=O,CCC 115-2000,broth dilution / turbidity,-,62.5 µg/mL
O=C(COc1ccccc1)c1ccccc1,ATCC 90030,broth dilution,24 h,>125 µg/mL
Cc1ccc(C(O)c2cccc(C(O)CCn3ccnc3)c2)cc1,RTCC 1040,broth dilution,-,>64 µg/mL
CCCCCCCCCCCCCCCC(=O)NC(CCCCN)C(=O)NC(CCCCN)C(N)=O,4812,broth dilution,-,4 µg/mL
Clc1ccccc1C(c1ccccc1)(c1ccccc1)n1ccnc1,40 isolates,broth dilution,pH 6,2 µg/mL
COc1ccc(OC/C(=N/O)c2ccccc2)cc1,ATCC 90030,broth dilution,24 h,>125 µg/mL
C[C@@H]1CC(=O)N(c2ccc(F)cc2)C1=O,CCC 115-2000,broth dilution / turbidity,-,62.5 µg/mL
O=C(/C=C/c1ccc(Cl)c(Cl)c1)c1c[nH]c2ccccc12,ATCC 36583,broth dilution,-,400 µg/mL
COc1cccc(OCC(=O)c2ccccc2)c1,ATCC 90030,broth dilution,48 h,>125 µg/mL
CCC(C)CC(C)CCCCCCCCC(=O)N[C@H]1C[C@@H](O)[C@H](NCCN)NC(=O)[C@@H]2[C@@H](O)CCN2C(=O)[C@H]([C@H](O)CCN)NC(=O)[C@H]([C@H](O)[C@@H](O)c2ccc(O)cc2)NC(=O)[C@@H]2C[C@@H](O)CN2C(=O)[C@H]([C@@H](C)O)NC1=O,Clinical isolates,-,-,0.066 µg/mL
O=P(O)(O)OP(=O)(O)OP(=O)(O)O,MC369,broth dilution,-,390 µg/mL
O=C(CCn1ccnc1)c1cccc(O)c1,RTCC 1040,broth dilution,-,>64 µg/mL
CC1CC(=O)N(CCCCc2ccccc2)C1=O,CCC 115-2000,broth dilution / turbidity,-,125 µg/mL
O=C(CCn1ccnc1)c1cccc(C(O)c2ccc(Cl)c(Cl)c2)c1,RTCC 1040,broth dilution,-,64 µg/mL
COC(=O)[C@H]1[C@@H]2C[C@@H](O[C@@H]3O[C@H](C)[C@@H](O)[C@H](N)[C@@H]3O)/C=C/C=C/C=C/C=C/C=C/C=C/C=C/[C@H](C)[C@@H](O)[C@H](C)[C@H](C)OC(=O)C[C@H](O)C[C@H](O)[C@@H](O)CC[C@H](O)C[C@H](O)C[C@](O)(C[C@@H]1O)O2,40 isolates,broth dilution,pH 6,0.125 µg/mL
COc1cc(OC/C(=N/O)c2ccccc2)cc(OC)c1OC,ATCC 90030,broth dilution,48 h,>125 µg/mL
CC(C)S(=O)(=O)N1CCN(c2cnn(-c3cc(F)cc(F)c3)c(=O)c2OC2CCC(F)C2)CC1,C110,broth dilution,-,0.25 µg/mL
OC(CCn1ccnc1)c1cccc(C(O)c2ccc(Br)cc2)c1,RTCC 1040,broth dilution,-,>64 µg/mL
CC[C@@H]([C@H](C)O)n1ncn(-c2ccc(N3CCN(c4ccc(OC[C@@H]5CO[C@@](Cn6cncn6)(c6ccc(F)cc6F)C5)cc4)CC3)cc2)c1=O,8661,broth dilution,-,1 µg/mL
C[C@@H]1CC(=O)N(CCc2ccccc2)C1=O,CCC 115-2000,broth dilution / turbidity,-,62.5 µg/mL
Cc1ccc(N2N=C(c3c[nH]c4ccccc34)CC2c2cc(Cl)ccc2Cl)cc1,ATCC 36583,broth dilution,-,100 µg/mL
O=C(CCn1ccnc1)c1ccc(Br)cc1,RTCC 1040,broth dilution,-,64 µg/mL
N=c1oc2ccccc2c2csc(N)c12,IP35,broth dilution,-,8 µg/mL
Cc1ccc(N2N=C(c3c[nH]c4ccccc34)CC2c2ccc(Cl)cc2Cl)cc1,ATCC 36583,broth dilution,-,200 µg/mL
O=C(COc1ccc(F)cc1)c1ccccc1,ATCC 90030,broth dilution,24 h,>125 µg/mL
C[C@@H](c1ncncc1F)[C@](O)(Cn1cncn1)c1ccc(F)cc1F,8658,broth dilution,-,0.03 µg/mL
Cc1ccc(N2N=C(c3c[nH]c4ccccc34)CC2c2cc(Cl)cc(Cl)c2)cc1,ATCC 36583,broth dilution,-,100 µg/mL
Nc1[nH]c(=O)ncc1F,40 isolates,broth dilution,pH 7,0.125 µg/mL
COc1ccccc1OCC(=O)c1ccccc1,ATCC 90030,broth dilution,24 h,>125 µg/mL

For reference, 3 entries again:

smiles,strain,method,setting,value
OC(CCn1ccnc1)c1cccc(C(O)c2ccc(Br)cc2)c1,RTCC 1040,broth dilution,-,>64 µg/mL
CCC(C)CC(C)CCCCCCCCC(=O)N[C@H]1C[C@@H](O)[C@H](NCCN)NC(=O)[C@@H]2[C@@H](O)CCN2C(=O)[C@H]([C@H](O)CCN)NC(=O)[C@H]([C@H](O)[C@@H](O)c2ccc(O)cc2)NC(=O)[C@@H]2C[C@@H](O)CN2C(=O)[C@H]([C@@H](C)O)NC1=O,ATCC 66032,broth dilution,-,0.5 µg/mL
O=P(O)(O)OP(=O)(O)OP(=O)(O)O,MC369,broth dilution,-,390 µg/mL